Results on 2 sequences are retold here after paper PMC4730234.

For at least one entry, the source does not settle the construct or the ends of the probe.

Series [1] relates to RNA polymerase holoenzyme (sigma-saturated) (Escherichia coli). Put plainly: DNase I footprinting. Conditions: footprint: 20 mM Tris-Cl pH 8.0, 50 mM KCl, 1 mM DTT, 5% glycerol, 100 ug/ml BSA, room temperature; commercial protein; label: FAM (3' end per Supplementary Fig 2 legend); probe letters rebuilt from the primers and the genome.
Series [2] has the same test system. The series is described as follows: EMSA. As to conditions: 0.05-0.2 U RNAP; EMSA: 20 mM Tris-HCl pH 8.0, 10 mM NaCl, 1 mM EDTA, 1 mM DTT, 1 ug salmon sperm DNA, 3 ug BSA in 20 ul, 1.0 nM DNA, 30 C, 20 min; commercial protein; label: FAM; probe letters rebuilt from the primers and the genome. A general note: In EMSA bound probe runs differently from free probe, usually more slowly.

As to “ATGCTGAGAATGACGACCCGGGTCACGTTCTCTTAACGTCGAGGCGACGAACTTGAATCAATAGGCCAACGCCGTCAAAAAAATGGCGTGTTGTGCCTTGCGATGTGTTCGTTCTATGCCATAGTGCACTGCAACACGCGATTCAATGTTGGTCCCGGCACGTGTCGGGATGCAACTTCCTGTCGTACGTTCGTGCTGGCGCCTGAGCCGGTTGAATGCTGCGCGAGGTCCTGTCCCACCCAACAGAGGCAGCCAGCTACACGCATGAAGAAACTGATCGGACGACTCTGCCAAGGCCTCAGCCTGGCTCTGCTCTGCTCGATGTCGCTG (double strand) [gumB promoter 330 bp]”, the binding result in series [1] is on record as “binds”. In the case of “CATCGAGCAGAGCAGAGCCAGGCTGAGGCCTTGGCAGAGTCGTCCGATCAGTTTCTTCATGCGTGTAGCTGGCTGCCTCTGTTGGGTGGGACAGGACCTCGCGCAGCATTCAACCGGCTCAGGCGCCAGCACGAACGTACGACAGGAAGTTGCATCCCGACACGTGCCGGGACCAACATTGAATCGCGTGTTGCAGTGCACTATGGCATAGAACGAACACATCGCAAGGCACAACACGCCATTTTTTTGACGGCGTTGGCCTATTGATTCAAGTTCGTCGCCTCGACGTTAAGAGAACGTGACCCGGGTCGTCATTCTCAGCATACGAACTCTAGCGTTTCCGGGCACTTACGGACGCCTACCGATCTCGACATGTAGCAGCCTGAACCGCAAAATAATTGCGCACAGGACTTGCATATGCCGCCTTGCAATATGCCGTTGCGCATAGTGACATAGCTTGGAATGCCATCGAACTGACATGTTGCGACGCAACAAAAAGGCCCACGTCTTGCGACATGGGCCTGTTGTT (double strand) [gumB promoter 529 bp]”, in series [2], the binding result is recorded as “binds”.
